Assay: Foam experiments (bleach with surface active agent plus hydrogen peroxide)
Format: physicochemical
[1] = 0-30 sec after mixing, agent 2% in 5.25% bleach (2 ml) + 2 ml 30% hydrogen peroxide
[2] = 5 min after mixing, agent 2% in 5.25% bleach (2 ml) + 2 ml 30% hydrogen peroxide

Benzalkonium Chloride
volume of foam [1]: 37.5 mL | volume of foam [2]: 5 mL

Polyoxyethylene sorbitan monooleate [Tween 80]
volume of foam [1]: 30 mL | volume of foam [2]: 35 mL

Sodium octylphenoxypolyethoxyethyl sulfonate [Triton x200]
volume of foam (0-30 sec after mixing, agent 1% in bleach + 30% hydrogen peroxide): 32.5 mL | volume of foam [1]: 32.5 mL | volume of foam (5 min after mixing, agent 1% in bleach + 30% hydrogen peroxide): 27.5 mL | volume of foam [2]: 27.5 mL

Polyoxyethylene lauryl ether [BRIJ 35]
volume of foam [1]: 30 mL | volume of foam [2]: 35 mL

CCCCCCCCCCCCOS(=O)(=O)[O-].[Na+] [SDS, Sodium dodecyl sulfate]
volume of foam [1]: 32.5 mL | volume of foam [2]: 35 mL

— patent US20070264355A1, “BINARY COMPOSITIONS AND METHODS FOR STERILIZATION” (Binary, LLC, priority 2005, published 2007)
